Data published in paper PMC5158083 (PLoS Pathogens, 2016).

By UniProt entry, the sequences of proteins in these tests, tags left out. Residues count along the entry.
UniProt J9VS02, 99-455 limits assumed: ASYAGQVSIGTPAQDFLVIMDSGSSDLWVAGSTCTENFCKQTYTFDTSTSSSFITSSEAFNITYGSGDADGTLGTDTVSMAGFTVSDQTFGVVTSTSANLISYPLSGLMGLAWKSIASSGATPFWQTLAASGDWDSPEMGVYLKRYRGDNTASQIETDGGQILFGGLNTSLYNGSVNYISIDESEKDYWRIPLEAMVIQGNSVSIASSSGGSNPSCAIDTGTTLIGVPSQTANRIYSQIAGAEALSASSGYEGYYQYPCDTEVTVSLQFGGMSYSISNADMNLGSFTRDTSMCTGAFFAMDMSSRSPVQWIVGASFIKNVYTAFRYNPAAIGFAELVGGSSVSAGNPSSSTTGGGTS

Molecular target: May1 (Cryptococcus neoformans, UniProt J9VS02)
Experiment: May1 inhibition, fluorogenic IQ-2 assay (screen and IC50)
Format: biochemical
Conditions: for % May1 inhibition at 1 uM: 1 uM inhibitor, substrate IQ-2

| SMILES | % May1 inhibition at 1 uM | IC50 (read-out: IC50 against May1, 14.6 nM May1, 10 μM IQ-2, 100 mM MES 100 mM NaCl pH 4.5, 10 min preincubation) |
| --- | --- | --- |
| CC(C)[C@@H]1NC(=O)C[C@H](O)[C@H](Cc2ccc(O)cc2)NC(=O)CCCCCCCCCCCNC1=O | 100% | 41 nM |
| NC(=O)[C@H](CCc1ccccc1)NC(=O)[C@H](CCC(=O)O)NC(=O)C[C@H](O)[C@H](Cc1ccccc1)NC(=O)OCc1ccccc1 | 100% |  |
